# According to paper PMC12033364, “Emergence of transferable daptomycin resistance in Gram-positive bacteria” (npj Antimicrobials and Resistance, 2025):
# Test system: S. aureus RN4220 cultures (drcAB-expressing and non-expressing)
# Assay: Fate of DAP in culture supernatants, LC-MS/MS
# Format: cell-based, Staphylococcus aureus
# Settings: 37 °C; for loss of the initial DAP concentration in supernatant: S. aureus RN4220_Pxyl/tet-drcAB, MH broth spiked with 16 μg/mL DAP, after 24 h, biological n = 2 with technical n = 5 each
compound,measurement,setting,value
"CCCCCCCCCC(=O)N[C@@H](Cc1c[nH]c2ccccc12)C(=O)N[C@H](CC(N)=O)C(=O)N[C@@H](CC(=O)O)C(=O)N[C@@H]1C(=O)NCC(=O)N[C@@H](CCCN)C(=O)N[C@@H](CC(=O)O)C(=O)N[C@H](C)C(=O)N[C@@H](CC(=O)O)C(=O)NCC(=O)N[C@H](CO)C(=O)N[C@@H]([C@H](C)CC(=O)O)C(=O)N[C@@H](CC(=O)c2ccccc2N)C(=O)O[C@@H]1C [DAP, Daptomycin]",loss of the initial DAP concentration in supernatant,"ATc-induced (100 ng/mL) drcAB expression, 200 rpm, P < 0.001",83.33%
same,loss of the initial DAP concentration in supernatant,"drcAB not induced (no ATc), P = 0.03",12.57%
same,DAP concentration in supernatant over time,"S. aureus RN4220 empty vector, MH broth spiked with 0.25 μg/mL DAP, 0 to 24 h",remained unaffected
